Where “and” joins values, the source holds several entries; their conditions need not be identical. Equal values may be shown once. The list shows a part of the results, in another mix than the full data. Records with an inconclusive call do not appear. For some of these results: Results with a measured potency or affinity are listed apart. Calls of active or inactive are those of the source. For most assays here, the call rests on the fitted dose curve; in most records, active means well fitted curve in the direction sought with a large enough effect; inconclusive means small, poorly fitted or top-dose-only effect, or another doubt; inactive means no such curve, though single readings can be large; an effect the other way counts as inactive or inconclusive.
Experiments:
[1] = qHTS assay for measurement of the activity of small molecule inhibitors on Zika virus induced Caspase-3 activity in human iPSC derived neural progenitor cells (hNPCs) (AID 1224857); details: hNPCs ZIKV-induced caspase-3/7, Caspase-Glo luminescence, 6 h; at 45.7 µM (top of the series) unless noted; further: % of control where 0% means no effect; nearly all actives have a fitted effect of over 65% in size
[2] = qHTS assay for measurement of the activity of small molecule inhibitors on Zika virus induced Caspase-3 activity in human astrocytoma cells (AID 1224859); details: SNB-19 ZIKV-induced caspase-3/7, luminescence, 6 h; at 45.7 µM (top of the series) unless noted;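 further: plate controls were ZIKV-infected untreated cells for no effect and uninfected cells for full effect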
[3] = NS1 protein of Zika virus - qHTS assay to identify small molecule inhibitors in human HEK 293 cells (AID 1347053); details: HEK293 ZIKV MR766 infection, NS1 TR-FRET, 24 h; at 46.1 µM (top of the series) unless noted;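 further: plate controls were infected untreated cells for no effect and uninfected cells for full effect; nearly all actives have a fitted effect of over 55% in size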
[4] = qHTS for Inhibitors of the Functional Ribonucleoprotein Complex (vRNP) of Lassa (LASV) Arenavirus: LASV Primary Screen - GLuc reporter signal (AID 1347082; calls by dose curve; tested in HEK293 reporter line; further: on the % scale 0 is the no-effect control and ±100 the full control effect; nearly all actives have a fitted effect of over 60% in size); details: LASV minigenome vRNP, Gaussia luciferase reporter; at 57.5 µM (top of the series) unless noted
[5] = qHTS for Inhibitors of the Functional Ribonucleoprotein Complex (vRNP) of Lassa (LASV) Arenavirus: Viability assay - alamar blue signal for LASV Primary Screen (AID 1347083; calls by dose curve; tested in HEK293 reporter line; further: on the % scale 0 is the no-effect control and ±100 the full control effect; nearly all actives have a fitted effect of over 80% in size); details: cell viability, alamar blue fluorescence (LASV minigenome counter-screen); at 57.5 µM (top of the series) unless noted
[6] = qHTS for Inhibitors of the Functional Ribonucleoprotein Complex (vRNP) of Lymphocytic Choriomeningitis Arenaviruses (LCMV): Viability assay - alamar blue signal for LCMV Primary Screen (AID 1347085; calls by dose curve; tested in HEK293 reporter line; further: on the % scale 0 is the no-effect control and ±100 the full control effect; nearly all actives have a fitted effect of over 80% in size); details: alamar blue viability counter-screen, LCMV vRNP screen cells; at 57.5 µM (top of the series) unless noted
[7] = target: Nucleoprotein (Lymphocytic choriomeningitis virus (strain Armstrong)) (UniProt P09992); assay: qHTS for Inhibitors of the Functional Ribonucleoprotein Complex (vRNP) of Lymphocytic Choriomeningitis Arenaviruses (LCMV): LCMV Primary Screen - GLuc reporter signal (AID 1347086; calls by dose curve; further: on the % scale 0 is the no-effect control and ±100 the full control effect; nearly all actives have a fitted effect of over 70% in size); details: LCMV minigenome vRNP cell assay, Gaussia luciferase reporter; at 57.5 µM (top of the series) unless noted
[8] = system: Zika virus NS2B-NS3 protease; assay: Primary screen GU AMC qHTS for Zika virus inhibitors (AID 1347154); details: Zika NS2B-NS3 unlinked protease, AMC fluorogenic substrate; at 54.1 µM (top of the series) unless noted;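 further: 0% = no-inhibitor control and -100% = no-enzyme control; nearly all actives have a fitted effect of over 70% in size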
[9] = Primary qHTS for inhibitors of La Crosse Virus (LACV) - induced cell death in SH-SY5Y cells (AID 1508616); details: SH-SY5Y LACV cytopathicity rescue, ATP luminescence, 6 d; at 9.63 µM (top of the series) unless noted;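 further: top concentration of the series differs between compounds; 0% = infected DMSO wells and 100% = uninfected DMSO wells; higher means more rescue of cells from virus-induced death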
Procedure, shortened: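 Protection against LACV-induced cell death is scored in SH-SY5Y cells exposed to compounds and virus (0.01 MOI) for 6 days. Data normalized to virus-infected DMSO wells and virus-free DMSO wells.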

By UniProt entry, the sequences of proteins in these tests, tags left out. Where a name states a change or a piece, a line headed by the entry shows the natural chain unless it says otherwise.
UniProt P09992: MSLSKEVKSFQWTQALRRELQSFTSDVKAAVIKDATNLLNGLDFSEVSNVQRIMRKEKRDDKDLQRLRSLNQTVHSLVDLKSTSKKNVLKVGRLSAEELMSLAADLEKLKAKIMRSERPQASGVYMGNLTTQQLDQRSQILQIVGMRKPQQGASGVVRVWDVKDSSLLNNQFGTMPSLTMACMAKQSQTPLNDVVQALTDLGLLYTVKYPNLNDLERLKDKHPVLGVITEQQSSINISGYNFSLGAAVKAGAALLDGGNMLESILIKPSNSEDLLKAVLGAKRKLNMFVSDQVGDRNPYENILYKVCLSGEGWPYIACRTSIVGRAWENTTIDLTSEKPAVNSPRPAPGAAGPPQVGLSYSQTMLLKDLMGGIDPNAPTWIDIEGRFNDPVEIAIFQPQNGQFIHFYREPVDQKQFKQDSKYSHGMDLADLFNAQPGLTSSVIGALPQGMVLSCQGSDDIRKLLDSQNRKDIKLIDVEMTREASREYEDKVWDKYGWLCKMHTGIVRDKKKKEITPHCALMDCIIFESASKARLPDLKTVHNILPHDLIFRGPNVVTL
UniProt Q27686: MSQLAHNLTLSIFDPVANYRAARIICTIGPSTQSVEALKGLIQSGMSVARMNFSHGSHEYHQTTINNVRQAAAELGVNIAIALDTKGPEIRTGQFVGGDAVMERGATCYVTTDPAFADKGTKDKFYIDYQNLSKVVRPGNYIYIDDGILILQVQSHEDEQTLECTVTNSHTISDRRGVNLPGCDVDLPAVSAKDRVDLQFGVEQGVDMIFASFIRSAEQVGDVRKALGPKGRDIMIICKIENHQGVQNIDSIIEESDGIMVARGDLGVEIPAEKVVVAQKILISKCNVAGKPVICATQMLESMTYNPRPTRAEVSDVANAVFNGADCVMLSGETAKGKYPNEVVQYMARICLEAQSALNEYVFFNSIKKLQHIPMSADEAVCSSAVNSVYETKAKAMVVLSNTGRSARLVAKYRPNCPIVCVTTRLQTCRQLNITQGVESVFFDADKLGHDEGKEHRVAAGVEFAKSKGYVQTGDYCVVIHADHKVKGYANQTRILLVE
UniProt O15648: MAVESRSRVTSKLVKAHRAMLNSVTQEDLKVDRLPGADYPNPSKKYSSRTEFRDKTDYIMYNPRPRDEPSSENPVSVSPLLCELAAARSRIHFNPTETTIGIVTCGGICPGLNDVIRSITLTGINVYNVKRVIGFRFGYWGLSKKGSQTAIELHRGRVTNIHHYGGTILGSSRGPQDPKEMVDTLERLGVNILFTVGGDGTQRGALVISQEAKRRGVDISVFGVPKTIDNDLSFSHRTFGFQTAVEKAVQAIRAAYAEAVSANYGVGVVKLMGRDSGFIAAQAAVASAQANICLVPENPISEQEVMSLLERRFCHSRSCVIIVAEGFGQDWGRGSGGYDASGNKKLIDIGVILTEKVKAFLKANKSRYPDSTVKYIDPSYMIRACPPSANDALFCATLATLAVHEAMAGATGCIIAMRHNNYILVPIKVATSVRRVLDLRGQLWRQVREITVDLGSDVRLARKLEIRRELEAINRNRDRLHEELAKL
UniProt P13267: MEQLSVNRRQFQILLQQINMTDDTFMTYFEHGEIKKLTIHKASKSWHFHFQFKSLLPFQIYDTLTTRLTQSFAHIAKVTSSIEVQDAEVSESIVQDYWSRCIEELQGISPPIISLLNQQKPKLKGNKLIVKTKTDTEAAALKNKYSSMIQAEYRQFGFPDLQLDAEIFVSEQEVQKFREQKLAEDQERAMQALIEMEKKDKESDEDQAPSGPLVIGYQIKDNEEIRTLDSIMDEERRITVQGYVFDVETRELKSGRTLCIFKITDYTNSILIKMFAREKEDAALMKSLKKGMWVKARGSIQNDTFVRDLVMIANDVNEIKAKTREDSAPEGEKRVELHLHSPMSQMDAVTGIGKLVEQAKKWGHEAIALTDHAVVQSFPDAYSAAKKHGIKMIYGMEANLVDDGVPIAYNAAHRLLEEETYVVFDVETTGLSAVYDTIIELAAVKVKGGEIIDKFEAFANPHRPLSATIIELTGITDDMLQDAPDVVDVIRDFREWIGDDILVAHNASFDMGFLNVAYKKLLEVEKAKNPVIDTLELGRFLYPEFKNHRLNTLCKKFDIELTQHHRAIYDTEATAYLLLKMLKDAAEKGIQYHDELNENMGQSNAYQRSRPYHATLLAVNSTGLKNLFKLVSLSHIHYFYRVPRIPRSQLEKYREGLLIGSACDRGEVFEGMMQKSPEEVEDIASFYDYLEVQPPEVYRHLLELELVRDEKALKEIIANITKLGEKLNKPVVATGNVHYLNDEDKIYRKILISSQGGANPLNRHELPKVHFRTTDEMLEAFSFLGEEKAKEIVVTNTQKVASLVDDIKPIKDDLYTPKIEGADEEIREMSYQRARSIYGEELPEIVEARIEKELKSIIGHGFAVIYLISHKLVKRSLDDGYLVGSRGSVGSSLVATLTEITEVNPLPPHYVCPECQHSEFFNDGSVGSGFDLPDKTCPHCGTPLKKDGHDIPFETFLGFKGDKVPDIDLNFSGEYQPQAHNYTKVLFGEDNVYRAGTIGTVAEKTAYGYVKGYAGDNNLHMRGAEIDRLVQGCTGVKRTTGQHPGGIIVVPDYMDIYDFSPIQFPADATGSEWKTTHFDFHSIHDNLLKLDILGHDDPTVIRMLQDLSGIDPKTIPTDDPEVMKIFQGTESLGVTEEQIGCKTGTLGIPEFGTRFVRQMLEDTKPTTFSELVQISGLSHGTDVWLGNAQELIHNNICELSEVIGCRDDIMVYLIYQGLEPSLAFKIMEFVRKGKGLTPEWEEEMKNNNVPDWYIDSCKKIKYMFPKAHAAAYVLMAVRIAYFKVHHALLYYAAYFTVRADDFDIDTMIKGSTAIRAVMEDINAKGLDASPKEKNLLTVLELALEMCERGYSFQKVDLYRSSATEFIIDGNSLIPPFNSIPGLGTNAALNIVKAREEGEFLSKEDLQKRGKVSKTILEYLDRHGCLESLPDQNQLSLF
UniProt Q99816: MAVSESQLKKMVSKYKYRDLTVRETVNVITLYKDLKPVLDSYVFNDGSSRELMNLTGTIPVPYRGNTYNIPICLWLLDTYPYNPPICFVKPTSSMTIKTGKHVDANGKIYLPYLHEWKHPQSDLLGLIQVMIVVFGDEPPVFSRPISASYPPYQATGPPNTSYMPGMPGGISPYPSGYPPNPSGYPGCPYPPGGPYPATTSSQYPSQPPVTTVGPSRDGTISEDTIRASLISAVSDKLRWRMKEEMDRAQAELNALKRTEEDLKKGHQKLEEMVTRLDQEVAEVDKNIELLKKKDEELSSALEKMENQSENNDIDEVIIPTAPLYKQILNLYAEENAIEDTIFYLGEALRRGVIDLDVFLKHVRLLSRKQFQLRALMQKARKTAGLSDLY

[10] = target: Pyruvate kinase (Leishmania mexicana) (UniProt Q27686); assay: qHTS Validation Assay for Inhibitors of Leishmania Mexicana Pyruvate Kinase (AID 945);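 further: 0% = DMSO only neutral control wells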; details: purified L. mexicana pyruvate kinase, enzyme activity, E451W mutant enzyme; at 57.5 µM (top of the series)
Procedure, shortened: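 Pyruvate kinase activity of E451W LmPYK (0.2 nM) was followed as ATP output after 1 h at room temperature with 0.5 mM PEP and 0.1 mM ADP, detected by PKLight luminescence.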

[11] = target: Endonuclease 4 (Escherichia coli (strain K12)) (UniProt P0A6C1); assay: Counterscreen for APE1 Inhibitors: qHTS Validation Assay for Inhibitors of Endonuclease IV (AID 1708); further: on the % scale 0 is the no-effect control and ±100 the full control effect; details: E. coli endonuclease IV, DNA cleavage fluorescence; at 57.1 µM (top of the series)
Procedure, shortened: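 E. coli EndoIV at 2 nM final, preincubated 15 min at room temperature with compound, then 50 nM TAMRA/BHQ-2 THF abasic-site duplex added. Buffer: 50 mM Tris-HCl pH 7.5, 50 mM NaCl, 2 mM MgCl2, 1 mM DTT, 0.01% Tween-20. Kinetic fluorescence increase, third minus first read.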

[12] = Quantitative high throughput screen for delayed death inhibitors of the malarial parasite plastid, 48 hour incubation (AID 488752); details: Plasmodium falciparum growth; at 28.7 µM (top of the series); further: on the % scale 0 is the no-effect control and ±100 the full control effect; nearly all actives have a fitted effect of over 65% in size
Procedure, shortened: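 Readout is firefly luciferase luminescence from a reporter integrated into the parasite genome, with lower signal taken as inhibited growth. Infected red cells (0.1% parasitemia, 2% hematocrit final) are cultured with compound for one 48 h cycle at 37 C.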

[13] = target: ATP-dependent 6-phosphofructokinase (Trypanosoma brucei brucei) (UniProt O15648); assay: qHTS Assay to Find Inhibitors of T. brucei phosphofructokinase: hit validation (AID 492961); further: on the % scale 0 is the no-effect control and ±100 the full control effect; details: T. brucei PFK, ADP-Glo luminescence; at 51.4 µM (top of the series)
Procedure, shortened: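 Luminescence from ADP-Glo reports ADP generated as T. brucei PFK (1.25 nM) phosphorylates 0.5 mM fructose-6-phosphate using 0.1 mM ATP. Reactions ran 45 min at room temperature, pH 8.0.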

[14] = Ebola virus entry assay, blue channel fluorescence
[15] = Ebola virus entry assay, ratio channel
[16] = Ebola virus entry assay, reporter ratio channel; Channel type: primary
[17] = Ebola virus entry assay, blue channel (ratio component)
[18] = target: DNA polymerase III PolC-type (Bacillus subtilis (strain 168)) (UniProt P13267); assay: qHTS Validation Assay for the Inhibitors of DNA Replication in Gram-Positive Bacteria (AID 485295); details: Gram-positive bacterial DNA replication assay; at 57.1 µM (top of the series);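 further: PicoGreen fluorescence of double-stranded DNA made on primed circular M13 template; 0% = DMSO wells and -100% = EDTA-quenched background wells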
Procedure, shortened: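 Reconstituted B. subtilis Pol III holoenzyme (PolC, beta clamp, SSB, primase) preincubated with compound, then M13Gori single-stranded circular template with dNTPs/NTPs added; room temperature reaction. Stopped with EDTA/PicoGreen; dsDNA fluorescence read, EDTA as full-inhibition control.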

[19] = target: Tumor susceptibility gene 101 protein (Homo sapiens) (UniProt Q99816); assay: qHTS Validation Assay for Iinhibitors of HIV-1 Budding by Blocking the Interaction of PTAP/TSG101 (AID 485342; calls by dose curve; further: 0% is about no effect); details: TSG101-PTAP binding, fluorescence polarization, 4-point titration; at 115 µM (top of the series)
Procedure, shortened: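 Tsg101 binding domain (10 uM) with FITC-labeled PTAP peptide (50 nM) in HEPES pH 7.5 buffer, 20 min at r.t. with compounds. Binding measured by fluorescence polarization.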

[20] = target: Phosphoglycerate kinase, glycosomal (Trypanosoma brucei brucei) (UniProt P07378); assay: qHTS Validation Assay to Find Inhibitors of Phosphoglycerate Kinase (AID 504547); details: enzymatic PGK inhibition, coupled luminescence read-out; at 57.5 µM (top of the series);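 further: control wells lack PGK and mark full inhibition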
Procedure, shortened: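 PGK activity was coupled to GAPDH (100nM final), which generates the unstable substrate 1,3-bisphosphoglycerate in-well. Reactions ran 60 minutes at room temperature in 100mM TEA pH 7.6, 5mM MgCl2, 0.01% Tween-20, then Kinase-Glo Plus luminescence was read.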

[21] = qHTS of Trypanosoma Brucei Inhibitors: LOPAC Validation (AID 624147); details: Trypanosoma brucei growth inhibition; at 57.5 µM (top of the series); further: 0% is about no effect
Procedure, shortened: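 Assay buffer: 50 mM TEA pH 7.2, 100 mM KCl, 10 mM MgCl2, 0.05% BSA, 0.01% Tween-20. Pyruvate kinase from T. brucei plus substrate met compound, then ADP (130 uM final). Luminescence was read post 45 min RT.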

[22] = system: Zika virus NS2B-NS3 protease (unlinked); assay: Optimization of GU AMC qHTS for Zika virus inhibitors: Unlinked NS2B-NS3 protease assay (AID 1347151); details: recombinant ZIKV NS2B-NS3 protease, fluorogenic AMC substrate; at 52.5 µM (top of the series);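 further: 0% = no-inhibitor control and -100% = no-enzyme control; nearly all actives have a fitted effect of over 80% in size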
Procedure, shortened: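 Noncovalent NS2B hydrophilic domain–NS3 protease complex (25 nM final) in 10 mM Tris-HCl pH 8.0, 0.01% Tween 20; AMC substrate, room temperature 15 min (~20% conversion); fluorescence change normalized, 4-parameter Hill fit.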

[23] = Ebola virus entry assay, green channel fluorescence

CN(C(=O)Cc1ccc(Cl)c(Cl)c1)[C@H]1CC[C@@]2(CCCO2)C[C@@H]1N1CCCC1
inactive: activity change, negative = inhibition [1] 11.7% | activity change, negative = inhibition [2] -6.31% | activity change, negative = inhibition [3] 4.02% | activity change, negative = inhibition [4] 1.47% | activity change, negative = reduced viability [5] 16.4% | activity change, negative = lower viability [6] 6.91% | activity change, negative = inhibition [7] 0.32% | activity change, negative = inhibition [8] -4% | activity change [9] 4.81% [at 4.29 µM]

CN(C(=O)Cc1ccc(Cl)c(Cl)c1)[C@@H]1CCCC[C@H]1N1CCCC1
inactive: activity change, negative = inhibition [10] 3.09% and 12.4% and -9.83% | activity change, negative = inhibition [11] -2.81% | activity change, negative = inhibition [12] -16.4% | activity change, negative = inhibition [8] -0.292%

CN(C(=O)Cc1ccccc1)[C@H]1CC[C@@]2(CCCO2)C[C@@H]1N1CCCC1
inactive: activity change, negative = inhibition [13] -3.96% | outcome [14] | outcome [15] | outcome [16] | outcome [17] | activity change, negative = inhibition [1] -1.01% | activity change, negative = inhibition [2] -0.842% | activity change, negative = inhibition [3] -2.47% | activity change, negative = inhibition [4] 4.56% | activity change, negative = reduced viability [5] 9.58% | activity change, negative = lower viability [6] 8.69% | activity change, negative = inhibition [7] 33.3% | activity change, negative = inhibition [8] 5.51% | activity change [9] -0.542% [at 4.29 µM]

CN(C(=O)Cc1ccc(Cl)c(Cl)c1)[C@H]1CCCC[C@@H]1N1CCCC1
inactive: activity change, negative = inhibition [11] -3.05% and 17% | activity change, negative = inhibition [18] -0.279% and -1.72% | fluorescence change [19] -2.35% and -5.6% | activity change, negative = inhibition [12] -22.8% and -25.7% | activity, negative = inhibition [20] 7.05% and 6.93% | activity change, negative = inhibition [21] 9.14% and -3.71% | activity change, negative = inhibition [1] -6.44% and 1.14% | activity change, negative = inhibition [2] 8.79% and -1.22% | activity change, negative = inhibition [3] 3.47% and -4.03% | activity change, negative = inhibition [4] 8.43% and 10.6% | activity change, negative = reduced viability [5] 0.517% and 5.12% | activity change, negative = lower viability [6] 2.3% and -4.13% | activity change, negative = inhibition [7] -1.02% and -3.26% | activity change, negative = inhibition [22] -0.321% and 2.61% | activity change, negative = inhibition [8] 8.55% [middle of 6 runs]

Cc1cc([N+](=O)[O-])cc([N+](=O)[O-])c1O
inactive: outcome [15] | outcome [23] | outcome [16] | outcome [17] | activity change, negative = inhibition [3] 1.44% [at 92.8 µM] | activity change, negative = lower viability [6] 34.8% [at 115 µM] | activity change, negative = inhibition [8] -11.3% [at 104 µM] | activity change [9] 36.1% [at 8.54 µM]

CCNC(C)Cc1ccc2c(c1)OCO2 (stereo unspecified)
inactive: outcome [15] | outcome [23] | activity change, negative = inhibition [1] 9.97% [at 92.8 µM] | activity change, negative = inhibition [2] -28.4% [at 92.8 µM] | activity change, negative = inhibition [3] -20% [at 92.8 µM] | activity change, negative = inhibition [4] 3.81% [at 115 µM] | activity change, negative = reduced viability [5] 8.86% [at 115 µM] | activity change, negative = lower viability [6] 10.2% [at 115 µM] | activity change, negative = inhibition [7] 7.08% [at 115 µM] | activity change, negative = inhibition [8] 2.1% [at 104 µM] | activity change [9] -16.4%
